# Primary screen of a compound library

Values are the deposited “Percent Effect”, in %.
How 0% and 100% were set is not recorded. Most values in the screen are low, and negative values occur.
This is part of a subset picked to be rich in strong results.
Two or more numbers in one place are separate tests of the same structure; such repeats can differ widely.
A dash means the value is not listed here; it may have been measured.

Mtb cholesterol medium: 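Phenotypic screen: M. tuberculosis growth, cholesterol and DPPC medium, 4 days; the read-out is not stated. Compounds at 50 µM. Direction is inferred from retests: higher values go with more growth inhibition. Of about 69,000 compounds tested this way, about 370 (0.54%) reached 50% or more in at least one test.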
Mtb glucose medium: 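Phenotypic screen: M. tuberculosis growth, glucose 7H9 medium, 3 days; the read-out is not stated. Concentration: 50 µM. Direction is inferred from retests: higher values go with more growth inhibition. Of about 69,000 compounds tested this way, about 760 (1.1%) reached 50% or more in at least one test.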

| structure | Mtb cholesterol medium | Mtb glucose medium |
|---|---|---|
| `Cn1ncc2c(NCCC34CCCN3CCC4)nc(C3CCCC3)nc21` | - | 71.38% and 24.93% |
| `CN(C)c1cccc(CNC(=O)Nc2ccc3[nH]nnc3c2)n1` | - | -3.718% and -6.975% |
| `Cc1ccc(C(=O)N2CCN(c3ccnc4ccsc34)CC2)o1` | 6.51% and 10.06% | 35.58% |
| `CCCn1nnc(NCc2cc(Br)cc(Br)c2OC)n1` | -10.06% | 39.99% |
| `Cc1nc(C2CCCN2CCS(C)(=O)=O)no1` (stereo not shown) | - | -18.73% |
| `Cc1nsc(NC2CCOC3(CCCCC3)C2)n1` (stereo not shown) | 34.5% | - |
| `CC(C)c1ccc(CN2C(=O)C3(CCNCC3)Nc3ccccc32)cc1` | 34.47% | 75.85% |
| `O=C(NCCc1ccccn1)N1CCSC2(CCCCC2)C1` | - | 26.98% |
| `CC(C)Cc1ncc2c(n1)CN(c1nc3ccccc3cc1CO)C2` | - | 11.17% and -7.182% |
| `O=C(NCc1ccccc1)N1CCC(Oc2ncccc2Br)CC1` | 12.1% | 17.01% |
| `CCCn1nnc(NCc2ccc(-c3ccc(Br)cc3)o2)n1` | 14.46% | 10.86% and 29.41% |
| `[H][C@]12CC[C@@]([H])(C1)N(Cc1cc(-c3ccccc3)no1)C2` | 22.19% and 41.73% | 25.3% |
| `OC[C@H]1CN(Cc2c(Cl)cncc2Cl)C[C@H]1CN1CCOCC1` | 7.015% and -0.1499% | - |
| `COCCC(=O)N1CCCC(CCC(=O)NCc2ccccc2F)C1` (stereo not shown) | - | -1.185% |
| `Cl.OC1(c2ccc(F)cc2)CCN(Cc2ccccc2N2CCCC2)CC1` | 24.63% | 52.77% |
| `CCCS(=O)(=O)N(C)C(=O)CCc1ccccc1` | 7.921% and 9.202% | 28.98% |
| `COc1ccc(-n2cc(CNC(=O)c3cscn3)nn2)cc1` | - | 17.58% and -2.622% |
| `O=C(c1cc2c([nH]c1=O)CCC2)N1CCCC1c1ccccc1` (stereo not shown) | 83.48% | - |
| `COc1cc(OC)cc(-c2cccc3c2OC(CN)C3)c1` (stereo not shown) | - | 51.62% and 30.69% |
| `O=C1C(Nc2ncccn2)CCN1c1ccccc1OC(F)F` (stereo not shown) | 26% | 13.3% and 16.24% |
| `COc1cc(C(=O)Nc2nc(C)no2)cc(OC)c1Br` | - | 25.68% |
| `CNC(=O)C1CCN(C(=O)c2cccn2Cc2cccs2)CC1` | - | -4.416% |
| `O=C(CNC(=O)C1(c2ccc(F)cc2F)CCC1)Nc1ccccn1` | 13.03% | 15.32% and 3.834% |
| `CN(CCOc1ccc(Cl)cc1)Cc1ccc(S(=O)(=O)N(C)C)o1` | -2.531% | 22.29% |
| `COc1c(Br)cccc1CCNC(=O)c1csnn1` | - | 63.29% and 39.08% |
| `O=C(c1csnn1)N1CCc2ccccc21` | - | 7.663% and -4.704% |
| `CC(=O)N1CCCC2(CCN(Cc3ccc(Cl)c(F)c3)C2)C1` (stereo not shown) | - | -3.831% and 10.73% |
| `CC(C)Cc1nc(CN(C)c2cc(C(C)C)nc3ccnn23)no1` | 33.85% | 39.14% |
| `NC(=O)Nc1cccc(Oc2ccccn2)c1` | - | -8.351% and 2.312% |
| `Cc1cccc(OCCNC(=O)CN2CCCC2Cn2cncn2)c1` (stereo not shown) | - | 8.426% |
| `Cc1nnc(CN2CCC(Oc3ccc(F)cc3)CC2)o1` | -11.19% | 0.9496% and -1.673% |
| `Cc1cc(C2CCC2)nc(N2CCC3(CCNC(=O)CC3)CC2)n1` | - | 27.57% |
| `COCCCSc1ccc(NCc2scnc2C)cc1` | - | 59.98% and 40.83% |
| `[H][C@@]12CN(c3cccnc3)CC[C@]1([H])CN(c1ncccn1)C2` | - | -0.4759% |
| `O=C1CNc2ncnc(N3CCN(Cc4ccccc4)CC3)c2N1` | - | 10.84% |
| `Cc1ncc(CN(Cc2ccccn2)Cc2ccccc2Cl)n1C.O=C(O)CC(O)(CC(=O)O)C(=O)O` | - | 39.44% |
| `CCN1CCC(CNCc2c[nH]nc2C(C)(C)C)C1.Cl` (stereo not shown) | 53.32% | 76.39% |
| `CC(C)c1nc(S(=O)(=O)N2CCSc3ccccc32)c[nH]1` | - | -5.226% and -2.149% |
| `CCOC(=O)c1ccc(N2CCN(Cc3c(C)nn(C)c3Cl)CC2)nc1` | 29.18% | 16.89% and 23.31% |
| `CC(C)Cc1ncc2c(n1)CN(c1nccc(NC(C)C)n1)C2` | - | 62.84% |
| `Fc1ccccc1CN1CCC[C@@H](Cn2nnc(-c3cccs3)n2)C1` | 29.94% and 38.06% | 51.28% |
| `Cc1ncc(-c2ccnc(N3CCN(C)CC3)n2)c(-c2cccnc2)n1` | - | -22.71% |

For reference, 5 entries once more:

* OC[C@H]1CN(Cc2c(Cl)cncc2Cl)C[C@H]1CN1CCOCC1 : Mtb cholesterol medium: 7.015% and -0.1499%
* Cc1cc(C2CCC2)nc(N2CCC3(CCNC(=O)CC3)CC2)n1 : Mtb glucose medium: 27.57%
* O=C(CNC(=O)C1(c2ccc(F)cc2F)CCC1)Nc1ccccn1 : Mtb cholesterol medium: 13.03%; Mtb glucose medium: 15.32% and 3.834%
* COc1cc(OC)cc(-c2cccc3c2OC(CN)C3)c1 (stereo not shown) : Mtb glucose medium: 51.62% and 30.69%
* Cc1nsc(NC2CCOC3(CCCCC3)C2)n1 (stereo not shown) : Mtb cholesterol medium: 34.5%

Data taken from ChEMBL document CHEMBL3988442, “University of Dundee, Small-Polar-MMV Screening Library” (2021).